Measured values from several laboratories, pooled; numbers as filed in NIAID ChemDB.

Common to all: growth or infection tests; species: HIV-1; cells: Jurkat cells; measure: EC50

Neighbouring rows are from separate reports.

CN[C@@H](C)C(=S)N[C@@H]1CCSC2CC(C)(C)[C@H](C(=O)N[C@@H](COCCn3cc(COC[C@H](NC(=O)[C@H]4N5C(=O)[C@@H](NC(=S)[C@@H](C)NC)CCSC5CC4(C)C)c4ccccc4)nn3)c3ccccc3)N2C1=O ; read by: fluorescence ; result: 0.178 µM
OCCC#Cc1nc(-c2ccc(F)cc2)c(-c2ccncc2)n1CCCc1ccccc1 ; strain: 89.6 ; read by: p24 ; result: <1 µM
Cc1cccnc1CN(CCCCN)Cc1nccc2ccccc12 ; read by: flow cytometry ; result: 0.026 µM
COc1cc2c(cc1OCCC(=O)Nc1cc(C(=O)Nc3cc(C(=O)Nc4cc(C(=O)NCCC(=N)N)n(C)c4)n(C)c3)n(C)c1)N=C[C@@H]1CCCN1C2=O ; read by: PCR ; result: 2.5 µM
COc1ccc2c(CN(CCCCN)Cc3ncccc3C)nccc2c1 ; read by: flow cytometry ; result: 0.89 µM
CN[C@H](C)C(=S)N[C@H]1CCSC2CC(C)(C)[C@@H](C(=O)N[C@@H](COCc3cn(COC[C@@H](NC(=O)[C@H]4N5C(=O)[C@@H](NC(=S)[C@@H](C)NC)CCSC5CC4(C)C)c4ccccc4)nn3)c3ccccc3)N2C1=O ; read by: fluorescence ; result: 0.2433 µM
Cn1cc(C(=O)O)c(=O)c2cc(N)c(N3CCN(c4ccccn4)CC3)cc21 ; strain: HXBc2 ; read by: RT activity ; result: 0.6 µM
Cc1cccnc1CN(CCCCN)Cc1nccc2cc(F)ccc12 ; read by: flow cytometry ; result: 0.00064 µM
COc1ccc2c(Cc3c4ccccc4cc4ccccc34)cncc2c1O ; read by: luciferase / β-galactosidase ; result: 0.1 µM
CN[C@@H](C)C(=O)N[C@H]1CCSC2CC(C)(C)[C@@H](C(=O)N[C@@H]3c4ccccc4C[C@@H]3OCCCCCCCCO[C@H]3Cc4ccccc4[C@H]3NC(=O)[C@@H]3N4C(=O)[C@H](NC(=O)[C@H](C)NC)CCSC4CC3(C)C)N2C1=O ; read by: fluorescence ; result: 0.0116 µM
Nc1ccc2nc3ccccc3cc2c1 ; result: >50 µM
COc1cc2c(cc1OCCC(=O)Nc1cc(C(=O)NCCC(=N)N)n(C)c1)N=C[C@@H]1CCCN1C2=O ; read by: PCR ; result: >200 µM
O=C(O)CS(=O)c1ccc2c3c(cccc13)C(=O)c1ccccc1-2 ; read by: luciferase / β-galactosidase ; result: 0.2 µM
c1ccc2nc3ccccc3cc2c1 ; result: >50 µM

Repeating the final 2 entries:

compound,strain,read by,result
O=C(O)CS(=O)c1ccc2c3c(cccc13)C(=O)c1ccccc1-2,-,luciferase / β-galactosidase,0.2 µM
c1ccc2nc3ccccc3cc2c1,-,-,>50 µM

An empty or dashed field is not shown. ECn is the concentration giving n% inhibition of infection, replication or growth.